This experiment can be described thus: CC50/EC50 ratio expressed as selectivity index(SI). Type of experiment: functional. The method, boiled down: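 Ratio of two MT-4 values from this work. CC50 is the concentration that reduces the viability of mock-infected MT-4 cells by 50%. EC50 is the concentration giving 50% protection of HIV-1-infected MT-4 cells against virus cytopathic effect. Both are means (± standard deviation or range) of at least two separate experiments.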

Regarding `CCc1c(Sc2ccccc2)n(COCCO)c(=O)[nH]c1=O`, the Ratio was determined as 3300.
